# Primary screen of a compound library

Source: ChEMBL document CHEMBL3988442, “University of Dundee, Small-Polar-MMV Screening Library” (2021).

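Phenotypic screen: M. tuberculosis growth, cholesterol and DPPC medium, 4 days; the read-out is not stated. Concentration: 500 µM. The record gives no direction; compounds that gave an IC50 in retests scored well above the rest, so higher reads as more growth inhibition. About 18,000 compounds were tested under these conditions; 5% (about 900) showed 50% or more at least once.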

Values are the deposited “Percent Effect”, in %. The record does not define 0% and 100%; most values in the screen are far below 50% and negative numbers occur (in some assays of this library far below -100). Many other results are left out here, so strong results are more common than in the screen.

structure,effect
CC(C)N1CCCC(N2CCNCC2)C1=O (configuration not stated),-7.77
OC(CN1CCOCC12CCCC2)C(F)(F)F (configuration not stated),5.879
NC1CCN(Cc2ccc(F)c(F)c2)CC1,29.31
CCN(CC)CCOc1ccc(CN)cc1OC,-14.93
CCc1nccn1CCCNC(=O)CN1CCOC1=O,-0.6353
CC1(C)C[C@@H]1C(=O)Nc1cnccc1N1CCOCC1,-0.4257
CCCn1ccnc1CN(C)Cc1nc(C)no1,7.294
NC1CCN(CC2CCCC2)CC1,32.28
Cc1ccc(CNCc2cscn2)c(N2CCCC2)n1,12.32
CC(C)N(C)S(=O)(=O)NCCCN(C)c1ccccc1,77.47
COCC(C)C(=O)Nc1ccc2[nH]nnc2c1 (configuration not stated),-10.27
NC(=O)CN1CCC(OCCCc2ccccc2)C1 (configuration not stated),75.13
Cc1n[nH]c(SCC(=O)Nc2ccccn2)n1,-3.599
COc1ccc(OC)c(CNc2nc(C)nn2C)c1,64.88
CCCS(=O)(=O)NCCOc1ccc(C#N)cc1,68.68
NCCN1CCN(c2ccc(F)cc2)CC1,32.43
COc1ccc(C(=O)CCN(C)C)cc1,112.6
NCCc1cc(C(F)(F)F)ccn1,-22.59
CCC[C@H]1CN(c2nc(C)ccc2C(=O)O)C[C@@H]1N,-4.985
CCN(CC)Cc1nnnn1-c1ccccc1,1.729
NC1CCN(c2ccccn2)C1 (configuration not stated),14.27
CC(=O)N1CCN(C(=O)CCC(C)C)CC1,13.08
COc1ccc(CNC(=O)CNC2CCCSC2)cc1 (configuration not stated),66.05
CN(CCNC(=O)c1cc[nH]n1)Cc1ccccc1,14.01
CSc1ccc(CN)cc1,10.12
Cc1cc(C)c(CNC(=O)N(C)C)c(=O)[nH]1,7.881
CCS(=O)(=O)NCCNCc1cccc(Cl)c1F,4.748
O=C(NCCC(F)(F)F)NC1CCC2(CC1)OCCO2,10.92
CC(C)CC(CCO)CNC(=O)N1CCSCC1 (configuration not stated),22.73
Clc1cnc(NCCNCc2cc[nH]n2)c(Cl)c1,53.71
CC(=O)NCCN(C)Cc1ccccc1,-22.25
COC(=O)[C@@H]1C[C@@H](O)CN1Cc1ccccc1N(C)C,4.646
CCc1nccn1CCNC(=O)CN1CCCC(O)C1 (configuration not stated),-0.9801
COc1ccccc1CNc1ccc(C#N)cn1,65.99
Cc1ncsc1C(=O)NCc1ccnc(N(C)C)c1,9.778
Cc1ccc(S(=O)(=O)CCCS(=O)(=O)N(C)C)c(C)c1,18.78
c1nsnc1-c1nc(C2CCCO2)no1 (configuration not stated),62.28
CCN(CC)CCNC(=O)Nc1nnc2ccccn12,4.726
COC(C(=O)NCC1(C)COC1)c1ccccc1 (configuration not stated),-3.658
COCCC(=O)Nc1ncn(Cc2ccc(Cl)cc2)n1,6.878
COCc1nn(CCn2cc(Br)cn2)c(=O)o1,45.38
COCCC(=O)Nc1ccc(OCC(F)(F)F)nc1,25.77
COc1c(Cl)cc(NC(=O)C2COCCN2)cc1Cl (configuration not stated),51.41
Clc1cccc2nc(N3CCNCC3)oc12,12.67
CCOc1ccccc1C(=O)Nc1nnc[nH]1,-1.025
O=C(c1cccnc1O)N1CCC(N2CCCCC2)C1 (configuration not stated),2.461
CNC(=O)CSCc1ccc2ccccc2n1,-35.51
CNC(=O)N(C)C(C)C1CCN(C)CC1 (configuration not stated),3.505
COc1ccc(OC)c(NC(=O)c2ccccn2)c1,78.5
NCC(=O)N1CCCCC1,0.6719
CC(C)c1csc(C(=O)N2CCn3cncc3C2)n1,3.837
COc1ccc2c(c1)CCN2C(=O)C(C)(C)C#N,80.64
Cc1nc(C)c(CNc2ccc(C#N)nc2)s1,4.009
COc1ccc(CCCN2CCNC(=O)CC2)cc1F,11.83
COCCNC(=O)COc1ccc2c(c1)OCO2,38.13
CC(CO)N(C)C(=O)c1cccc2cc[nH]c12 (configuration not stated),-9.535
CC1(C#N)CCNC1 (configuration not stated),2.484
CN(C)C(=O)CN(C)c1ncc(C(F)(F)F)cc1Cl,14.72
CC(N)CN1CCOC1=O (configuration not stated),-7.004
CSc1cc(NC(=O)NCCc2ccccn2)ccn1,60.08
CC(=O)c1ccccc1NC(=O)CN1CC[C@H](N)C1,22.53
CO[C@H]1CNCC1NC(=O)Cc1cccc(Cl)c1 (some centres not stated),18.88
CNCC(=O)NC(C)c1nc(-c2ccc(Br)cc2)no1 (configuration not stated),-18.24
CC(=O)NC(C)C(=O)Nc1ccccn1 (configuration not stated),0.4798
COc1cc(OC)cc(N2CCCNCC2)c1,60.54
COc1cccc(OC(C)CN)c1 (configuration not stated),6.132
CNCc1cc(C#N)ccc1F,24.94
NCC(O)c1ccc(Cl)c(F)c1 (configuration not stated),37.43
CCCc1nc(C)n[nH]1,-10.41
NS(=O)(=O)C1CCN(Cc2ccc(Br)c(F)c2)C1 (configuration not stated),44.21
NS(=O)(=O)c1ccc(OCC(F)(F)F)nc1,3.439
CNC(=O)NC(=O)CN1CCCCC1CNS(C)(=O)=O (configuration not stated),-1.335
CS(=O)(=O)N1CCN(C(=O)c2cc(C3CC3)on2)CC1,19.38
NC(Cc1ccccn1)C(F)(F)F (configuration not stated),-5.804
Cc1cc(Cn2c(=O)[nH]c3ccccc3c2=O)no1,-11.35
CCOc1cc(CN)ccn1,-0.4667
OCC(O)CSc1ncn(-c2ccccc2)n1 (configuration not stated),-4.989
Cc1n[nH]c(C)c1S(=O)(=O)N1CCC2(CCNCC2)C1,14.19
N[C@H]1CCN(C(=O)CCc2cc(F)ccc2F)C1,6.322
Cc1nnc(CN(C)CC2CCN(C)C2(C)C)o1 (configuration not stated),-14.97
COCCNS(=O)(=O)c1ccc(C#N)cc1,-16.04
CCOc1cc(C)ccc1S(=O)(=O)Nc1ccccn1,7.626
C=C(C)COc1ccc(C(=O)NCc2ncc[nH]2)cc1,24.05
Cc1ccc(F)cc1C(=O)OCCCNC(N)=O,15.66
O=C(NC1CCC(O)CC1)N1CCN(CC2CC2)CC1 (configuration not stated),3.287
Cc1nnc(SCC=Cc2ccccc2)n1CC(N)=O,-6.213
CCN1CCN(c2ccc(C#N)cn2)CC1,7.735
COc1ccc2c(c1)NCC(C)O2 (configuration not stated),44.95
COCc1nn(Cc2sc(C)nc2C)c(=O)o1,2.316

Some entries from above, unchanged:

{"structure": "O=C(NC1CCC(O)CC1)N1CCN(CC2CC2)CC1", "stereo": "configuration not stated", "effect": 3.287}
{"structure": "CN(CCNC(=O)c1cc[nH]n1)Cc1ccccc1", "effect": 14.01}
{"structure": "Cc1ccc(S(=O)(=O)CCCS(=O)(=O)N(C)C)c(C)c1", "effect": 18.78}
{"structure": "COC(=O)[C@@H]1C[C@@H](O)CN1Cc1ccccc1N(C)C", "effect": 4.646}
{"structure": "CC(C)CC(CCO)CNC(=O)N1CCSCC1", "stereo": "configuration not stated", "effect": 22.73}
{"structure": "COCCNS(=O)(=O)c1ccc(C#N)cc1", "effect": -16.04}
{"structure": "CC(=O)NCCN(C)Cc1ccccc1", "effect": -22.25}